This series has as its system HepG2-NTCP cells. Nature of the series: TMT-based phosphoproteome profiling of HBV-infected vs mock HepG2-NTCP (HBV/mock ratio). Details: species or system human. Particulars: phosphosite abundance ratio of host protein, HBV-infected vs mock HepG2-NTCP, 7dpi, sheet Up-regulated.

B1: Q9BUI4 2xPhospho [S204(100); S205(100)] (protein, UniProt Q9BUI4 1-534, looked up)
DNA-directed RNA polymerase …: MTQAEIKLCSLLLQEHFGEIVEKIGVHLIRTGSQPLRVIAHDTGTSLDQVKKALCVLVQHNLVSYQVHKRGVVEYEAQCSRVLRMLRYPRYIYTTKTLYSDTGELIVEELLLNGKLTMSAVVKKVADRLTETMEDGKTMDYAEVSNTFVRLADTHFVQRCPSVPTTENSDPGPPPPAPTLVINEKDMYLVPKLSLIGKGKRRRSSDEDAAGEPKAKRPKYTTDNKEPIPDDGIYWQANLDRFHQHFRDQAIVSAVANRMDQTSSEIVRTMLRMSEITTSSSAPFTQPLSSNEIFRSLPVGYNISKQVLDQYLTLLADDPLEFVGKSGDSGGGMYVINLHKALASLATATLESVVQERFGSRCARIFRLVLQKKHIEQKQVEDFAMIPAKEAKDMLYKMLSENFMSLQEIPKTPDHAPSRTFYLYTVNILSAARMLLHRCYKSIANLIERRQFETKENKRLLEKSQRVEAIIASMQATGAEEAQLQEIEEMITAPERQQLETLKRNVNKLDASEIQVDETIFLLESYIECTMKRQ
modifications: phospho S204, S205
In the case of B1, the HBV/mock is reported as 1.65.

B2: Q9NVU0 1xPhospho [S162(100)] (protein, UniProt Q9NVU0 1-708, looked up)
DNA-directed RNA polymerase …: MANEEDDPVVQEIDVYLAKSLAEKLYLFQYPVRPASMTYDDIPHLSAKIKPKQQKVELEMAIDTLNPNYCRSKGEQIALNVDGACADETSTYSSKLMDKQTFCSSQTTSNTSRYAAALYRQGELHLTPLHGILQLRPSFSYLDKADAKHREREAANEAGDSSQDEAEDDVKQITVRFSRPESEQARQRRVQSYEFLQKKHAEEPWVHLHYYGLRDSRSEHERQYLLCPGSSGVENTELVKSPSEYLMMLMPPSQEEEKDKPVAPSNVLSMAQLRTLPLADQIKILMKNVKVMPFANLMSLLGPSIDSVAVLRGIQKVAMLVQGNWVVKSDILYPKDSSSPHSGVPAEVLCRGRDFVMWKFTQSRWVVRKEVATVTKLCAEDVKDFLEHMAVVRINKGWEFILPYDGEFIKKHPDVVQRQHMLWTGIQAKLEKVYNLVKETMPKKPDAQSGPAGLVCGDQRIQVAKTKAQQNHALLERELQRRKEQLRVPAVPPGVRIKEEPVSEEGEEDEEQEAEEEPMDTSPSGLHSKLANGLPLGRAAGTDSFNGHPPQGCASTPVARELKAFVEATFQRQFVLTLSELKRLFNLHLASLPPGHTLFSGISDRMLQDTVLAAGCKQILVPFPPQTAASPDEQKVFALWESGDMSDQHRQVLLEIFSKNYRVRRNMIQSRLTQECGEDLSKQEVDKVLKDCCVSYGGMWYLKGTVQS
modifications: phosphorylated S162
Take B2: the HBV/mock stood at 1.324.

B3: Q9NVU0 1xPhospho [S503(100)] (protein, UniProt Q9NVU0 1-708, looked up)
DNA-directed RNA polymerase …: B2 DNA-directed RNA polymerase …
modifications: phospho S503
For B3, the HBV/mock came to 1.444.

B4: O43741 1xPhospho [S108(100)] (protein, UniProt O43741 1-272, looked up)
5'-AMP-activated protein …: MGNTTSDRVSGERHGAKAARSEGAGGHAPGKEHKIMVGSTDDPSVFSLPDSKLPGDKEFVSWQQDLEDSVKPTQQARPTVIRWSEGGKEVFISGSFNNWSTKIPLIKSHNDFVAILDLPEGEHQYKFFVDGQWVHDPSEPVVTSQLGTINNLIHVKKSDFEVFDALKLDSMESSETSCRDLSSSPPGPYGQEMYAFRSEERFKSPPILPPHLLQVILNKDTNISCDPALLPEPNHVMLNHLYALSIKDSVMVLSATHRYKKKYVTTLLYKPI
modifications: phosphorylated S108
Consider B4, for which the HBV/mock stood at 1.37.
